Pooled drug test results. Numbers come from NIAID ChemDB, via PubChem.

Shared fields: toxicity to cultured cells; cells: MT-2; read-out: CC50

Lines come from different laboratories, so protocols vary. CCn is the concentration with n% toxicity to the cells.

SMILES | result
Nc1nc(N)c2ncn([C@H]3CO[C@@H](CO)O3)c2n1 | >1000 µM
Nc1ccn([C@H]2CC[C@@H](CO)O2)c(=O)n1 | >32 µg/mL
Nc1nc2c(ncn2[C@@H]2O[C@H](OCP(=O)(O)O)C=C2F)c(=O)[nH]1 | 700 µM
O=S1(c2ccc(Cl)cc2)=NC(=S)Nc2ccc(Cl)cc21 | 32.8 µM
Nc1ccc(CC2(Cc3ccncc3)C(=O)N(c3ccccc3)c3ccccc32)cc1 | 55 µM
CNc1nc(N)nc2c1ncn2[C@H]1CC[C@@H](CO)O1 | >20 µM
CSC1N=S(=O)(c2ccccc2)c2ccccc2N1 | 87.6 µM
CN1CC=C(CC2(CC3=CCN(C)CC3)C(=O)N3c4ccccc4CCc4cccc2c43)CC1 | 74 µM
Nc1ccn([C@H]2CC[C@@H](CO)O2)c(=O)n1 | >10 µM
Nc1nc2c(ncn2[C@H]2CC[C@@H](CO)O2)c(=O)[nH]1 | >20 µM
Nc1ncnc2c1ncn2[C@@H]1O[C@H](OCP(=O)(O)O)C=C1F | >1000 µM
Nc1ccn([C@H]2CC[C@@H](CO)O2)c(=O)n1 | 10 µM
CS(=O)(=O)N1CCC(CC2C(=O)N(c3ccccc3)c3ccccc32)CC1 | >130 µM
Nc1nc(NC2CC2)c2ncn([C@H]3C=C[C@@H](CO)O3)c2n1 | >100 µM
Nc1nc(N)c2ncn([C@H]3C=C[C@@H](CO)C3)c2n1 | >58.8 µg/mL
Nc1nc(NC2CC2)c2ncn([C@H]3C=C[C@@H](CO)C3)c2n1 | 55 µM
Nc1ccn([C@H]2CC[C@@H](CO)O2)c(=O)n1 | 44 µg/mL
CN1CCCC(CCC2(CCC3CCCN(C)C3)C(=O)N(c3ccccc3)c3ccccc32)C1 | 41 µM
O=S1(c2cccc(Cl)c2)=NC(=S)Nc2ccc(Cl)cc21 | 65.7 µM
Nc1nc(N)c2ncn([C@H]3CC[C@@H](CO)C3)c2n1 | >91.9 µg/mL
Nc1nc2c(ncn2[C@H]2CO[C@@H](CO)O2)c(=O)[nH]1 | >500 µM
Cc1cn([C@H]2C[C@H](N=[N+]=[N-])[C@@H](CO)O2)c(=O)[nH]c1=O | 109.4 µM
Nc1nc2c(ncn2[C@H]2C=C[C@@H](CO)C2)c(=O)[nH]1 | >100 µM
CN(C)c1nc(N)nc2c1ncn2[C@H]1CC[C@@H](CO)O1 | >20 µM
Cc1cn([C@H]2C=C[C@@H](CO)O2)c(=O)[nH]c1=O | 98 µM
Nc1ncnc2c1ncn2[C@H]1C=C[C@@H](OCP(=O)(O)O)O1 | >1000 µM
CN1CC=C(CC2C(=O)N(c3ccccc3)c3ccccc32)CC1 | >141 µM
O=S1(c2ccccc2)=NC(=S)Nc2ccccc21 | >73 µM
CC(C)c1cc2c(c(O)c1O)[C@@]1(C(=O)O)CCCC(C)(C)C1CC2 | 70.3 µM
CCNc1cccnc1N1CCN(C(=O)c2cc3cc(OC)ccc3[nH]2)CC1 | 28 µM
O=c1[nH]cnc2c1ncn2[C@H]1CC[C@@H](CO)O1 | >1000 µM
Nc1nc2c(ncn2[C@H]2C=C[C@@H](CO)O2)c(=O)[nH]1 | 16 µM
Nc1nc(=O)n([C@@H]2CS[C@H](CO)O2)cc1F | >1000 µM

Repeating the first 4 entries:

SMILES,result
Nc1nc(N)c2ncn([C@H]3CO[C@@H](CO)O3)c2n1,>1000 µM
Nc1ccn([C@H]2CC[C@@H](CO)O2)c(=O)n1,>32 µg/mL
Nc1nc2c(ncn2[C@@H]2O[C@H](OCP(=O)(O)O)C=C2F)c(=O)[nH]1,700 µM
O=S1(c2ccc(Cl)cc2)=NC(=S)Nc2ccc(Cl)cc21,32.8 µM